From US20230338478A1 (University of Pennsylvania, published 2023)

Molecular target: T1, SARS-CoV-2 RBD 417N/484K/501Y (South Africa, B.1.351), purified recombinant (SARS-CoV-2)
T1 construct: range […]
Assay: SPR, decoy-Fc captured on protein A/G chip, RBD injected, 1:1 fit

B1: ACE2-wt-Fc4 (Fc fusion)
chain: not shown
With B1 the Kd was 0.0122 µM.
